Results of unrelated studies side by side (data: NIAID ChemDB).

Common to all: tests in culture; organism: HIV-1; read-out: inhibition

An empty or dashed field is not shown. Percent inhibition refers to the dose given; in toxicity tests it is the harm to the cells. Lines come from different laboratories, so protocols vary.

compound,strain,changes,cells,read by,setting,tested at,value
c1cc(CN2CCCNCCNCCCNCC2)ccc1CN1CCCNCCNCCCNCC1,SW26 CLADE C R5,-,PBMC,p24,-,0.1 µM,0%
O=C1CSC(c2c(Cl)ncnc2Cl)N1c1ncccn1,NL4-3,-,TZM-bl,MTT,-,5 µg/mL,<5%
Cc1ccnc2c1NC(=O)c1cccnc1N2C1CC1,IIIB,-,PBL (activated) + PBL,RT activity,-,0.3 µM,90%
O=C(O)CCCCCCCCCCCI,IIIB,-,CEM + CEM-SS,cytopathic effect / XTT,-,20 µM,45.3%
Cn1cccc1-c1cn([C@H]2C[C@H](O)[C@@H](CO)O2)c(=O)nc1N,IIIB,-,H9,RT activity,-,10 µg/mL,8%
Cc1cn([C@H]2C[C@H](N=[N+]=[N-])[C@@H](CO)O2)c(=O)[nH]c1=O,BaL,-,HUT/CCR5 + HUT,p24,7 d,0.5 µM,98%
O=Nc1c(-c2c(O)[nH]c3ccccc23)[nH]c2ccccc12,SF162,-,MDM,RT activity,28 d,1 µM,57.6%
C[C@H]1CCC/C=C/[C@@H]2C[C@H](O)C[C@H]2[C@@H](O)/C=C/C(=O)O1,IIIB,-,MOLT-3,-,-,5 µg/mL,80%
Nc1nc(=O)n([C@@H]2C[C@H](O)[C@@H](CO)O2)cc1-c1ccccc1,IIIB,-,H9,RT activity,-,10 µg/mL,30%
COc1cc(O)c2c(c1)C(=O)c1c(cc3c(c1O)-c1c(cc(C)c(C(=O)N[C@H](C)C(=O)O)c1O)[C@H](O[C@@H]1O[C@H](C)[C@H](N)[C@H](O[C@@H]4OC[C@@H](O)[C@H](O)[C@@H]4O)[C@H]1O)[C@H]3O)C2=O,IIIB,-,MOLT-4,syncytia,-,3 µg/mL,34%
NC(N)=NCCC[C@@H](C=O)NC(=O)CNC(=O)[C@@H]1CCCN1C(=O)CNC(=O)[C@@H](N)CCCN=C(N)N,ELI,-,HUT,p24,-,25 µg/mL,0%
COC(=O)[C@@H]1C2CCC(C[C@@H]1OC(=O)c1ccccc1)N2C,IIIB,-,U1,p24,-,25 µg/mL,<0%
NCC(=O)NCC(=O)NCC=O,IIIB,-,H9,syncytia,-,25 µg/mL,10%
CCC(C)C(=O)O[C@H]1C(C)(C)[C@H](C(O)C(=O)OC)[C@]2(C)C(=O)[C@@]1(O)[C@@H](O)C1=C3CC(=O)O[C@@H](c4ccoc4)[C@]3(C)CC[C@@H]12,NL4-3,-,SupT1,luciferase / luminescence,pseudotyped,20 µM,0%
COc1ccc(OC[C@@H]2CNCC[C@H]2c2ccccc2)cc1,IIIB,-,MOLT-3,p24,-,4 µg/mL,7%
Cc1ccc(C(=O)OC[C@H]2O[C@@H](n3cc(-c4ccoc4)c(N)nc3=O)C[C@@H]2OC(=O)c2ccc(C)cc2)cc1,IIIB,-,H9,RT activity,-,10 µg/mL,>90%
COc1cc(O)c2c(c1)C(=O)c1c(cc3c(c1O)-c1c(cc(C)c(C(=O)N[C@H](C)C(=O)O)c1O)[C@H](O[C@@H]1O[C@H](C)[C@H](NC(C)=O)[C@H](O[C@@H]4OC[C@@H](O)[C@H](O)[C@H]4O)[C@H]1O)[C@H]3O)C2=O,IIIB,-,MT-4,antigen,-,30 µg/mL,<10%
CCC(C)C(=O)O[C@@H]1C(=O)/C=C2/C3=CC(=O)O[C@@H](c4ccoc4)[C@]3(C)CC[C@@H]2[C@@]2(C)C(=O)C[C@]1(C)[C@@H]2[C@@H](O)C(=O)OC,NL4-3,-,SupT1,luciferase / luminescence,pseudotyped,20 µM,14.77%
Cc1cn([C@H]2C[C@H](N=[N+]=[N-])[C@@H](CO)O2)c(=O)[nH]c1=O,IIIB,-,MT-4,p24,-,0.0078 µM,73.62%
O=C1CSC(c2c(Cl)ncnc2Cl)N1n1cnnc1,NL4-3,-,TZM-bl,MTT,-,5 µg/mL,27.27%
C=C(CC[C@@H](C)[C@H]1CC=C2C3=C([C@@H](O)[C@H](OC(C)=O)[C@@]21C)[C@@]1(C)C[C@@H](O)[C@H](OS(=O)(=O)O)C(C)(C)[C@@H]1CC3)C(C)C,-,-,-,-,-,25 µM,95%
CCC1=C(CC)c2cc3[n-]c(cc4[n-]c(cc5nc(cc1n2)C(CC)=C5CC)c(CC)c4CC)c(CC)c3CC.[O]=[V+2],BaL,-,HUT/CCR5 + HUT,p24,7 d,5 µM,42%
COC(=O)[C@@H](C)NC(=O)c1c(C)cc2c(c1O)-c1c(cc3c(c1O)C(=O)c1cc(OC)cc(O)c1C3=O)[C@H](O)[C@H]2O[C@@H]1O[C@H](C)[C@H](N)[C@H](O[C@@H]2OC[C@@H](O)[C@H](O)[C@H]2O)[C@H]1O,IIIB,-,MOLT-4,syncytia,-,30 µg/mL,100%
O=C(O)CCOCCCCCCCCCl,IIIB,-,CEM + CEM-SS,cytopathic effect / XTT,-,6.3 µM,7%
COc1nc(C)nc(N2C(=O)CSC2c2c(Cl)ncnc2Cl)n1,NL4-3,-,TZM-bl,MTT,-,5 µg/mL,<5%
COC(=O)[C@H](OC(C)=O)[C@H]1C(C)(C)[C@H](OC(=O)C(C)C)[C@]2(O)CC3=C4CC(=O)O[C@@H](c5ccoc5)[C@]4(C)CC[C@@H]3[C@@]1(C)C2=O,NL4-3,-,SupT1,luciferase / luminescence,pseudotyped,100 µM,53.74%
CCCCCN1CC[C@@H](c2ccc(F)cc2)[C@H](COc2ccc3c(c2)OCCO3)C1,IIIB,-,MOLT-3,syncytia,-,4 µg/mL,22%
O=c1[nH]cnc2c1ncn2[C@H]1CC[C@@H](CO)O1,BZ X4,-,PBL (activated) + PBL,RT activity,-,9 µM,51%
Cc1cc(C)nc(N2C(=O)CSC2c2c(Cl)ncnc2Cl)n1,NL4-3,-,TZM-bl,MTT,-,5 µg/mL,71.65%
CCSCCCCCCCCCCC(=O)O,IIIB,-,CEM + CEM-SS,cytopathic effect / XTT,-,6.3 µM,11.2%
Nc1ncnc2c1ncn2[C@H]1CC[C@@H](CO)O1,LAV-1,-,U-937,virus yield,-,0.1 µM,0%
COc1cc(OC)c2c(O)c3c(=O)cc(C)oc3c(-c3c(OC)c4c(cc(O)c5c(O)cc(C)oc54)cc3=O)c2c1,SF162,-,TZM-bl,luciferase,-,10 µM,0.3%
O=C(O)c1cc(O)c(O)c(O)c1,IIIB,-,MOLT-3,p24,-,10 µg/mL,36%
C[C@H](Cn1cnc2c(N)nc(N)nc21)OCP(=O)(O)O,BaL,-,Macrophage + Monocytes/macrophages,p24 / syncytia,-,0.05 µM,92%
OCCN1CCN(CC/C=C2/c3ccccc3Sc3ccc(C(F)(F)F)cc32)CC1,IIIB,-,MOLT-3,p24,-,2 µg/mL,43%
CC(C)[C@H](NC(=O)c1ccc2ccccc2n1)C(=O)N[C@@H](Cc1ccccc1)[C@H](O)CN1CC[C@@H](OCc2ccncc2)C[C@H]1C(=O)NC(C)(C)C,ADA,-,Macrophage + Monocytes/macrophages,p24,-,0.012 µM,90%
Fc1ccc([C@H]2CCNC[C@@H]2COc2ccc3c(c2)OCCO3)cc1,IIIB,-,MOLT-3,syncytia,-,4 µg/mL,12%
Cc1ccc(C(=O)O[C@H]2C[C@H](n3cc(-c4cccs4)c(N)nc3=O)O[C@@H]2CO)cc1,IIIB,-,H9,RT activity,-,10 µg/mL,10%
COc1ccc(CN[C@@H](C(=O)N[C@H]2c3ccccc3C[C@H]2O)[C@H](O)[C@H](Cc2ccccc2)NC(=O)[C@@H](NC(=O)OCc2ccccc2)C(C)(C)C)cc1,BaL,-,Primary monocytes + Monocyte,p24,-,0.087 µM,90%
CC(C)(C)NC(=O)[C@@H]1C[C@@H]2CCCC[C@@H]2CN1C[C@@H](O)[C@H](Cc1ccccc1)NC(=O)[C@H](CC(N)=O)NC(=O)c1ccc2ccccc2n1,Saquinavir-resistant (PR G48V L90M),PR-G48V L90M,CEM + CEM-SS,RT activity,10 d,0.1 µM,100%
Nc1nc(NC2CC2)c2ncn([C@H]3C=C[C@@H](CO)C3)c2n1,BZ X4,-,PBL (activated) + PBL,RT activity,-,4 µM,89%
Nc1nc(=O)n([C@@H]2C[C@H](O)[C@@H](CO)O2)cc1-c1ccc[se]1,IIIB,-,H9,RT activity,-,10 µg/mL,5%
Cc1cn([C@H]2C[C@H](N=[N+]=[N-])[C@@H](CO)O2)c(=O)[nH]c1=O,CONB/pNL43E-Luc+,-,U87 (CD4+ CCR5+) + U87,luciferase,-,0.2 µg/mL,100%
COc1ccc(OC[C@@H]2CNCC[C@H]2c2ccc(F)cc2)cc1,IIIB,-,MOLT-3,p24,-,4 µg/mL,7%
COC(=O)C(O)[C@H]1[C@]2(C)C[C@@]3(OC(=O)C(C)C)[C@]1(C)[C@H]1CC[C@]4(C)C(=CC(=O)O[C@H]4c4ccoc4)[C@@]1(O)[C@@]3(O)C(=O)[C@H]2OC(C)=O,NL4-3,-,SupT1,luciferase / luminescence,pseudotyped,20 µM,0%
Cc1ccsc1-c1cn([C@@H]2C[C@H](O)[C@@H](CO)O2)c(=O)[nH]c1=O,IIIB,-,H9,RT activity,-,10 µg/mL,8%
COc1ccc(OC[C@H]2CNCC[C@@H]2c2ccc(F)cc2)cc1,IIIB,-,MOLT-3,syncytia,-,4 µg/mL,5%
Cc1ccnc2c1NC(=O)c1cccnc1N2C1CC1,-,-,MAGI,β-galactosidase,-,5 µg/mL,85%
NC(N)=NCCC[C@@H](C=O)NC(=O)CNC(=O)[C@@H]1CCCN1,ELI,-,HUT,p24,-,250 µg/mL,0%
Nc1nc(=O)n([C@@H]2C[C@H](O)[C@@H](CO)O2)cc1-c1ccc(-c2ccccc2)s1,IIIB,-,H9,RT activity,-,10 µg/mL,<35%
COc1cc(O)c2c(=O)oc3cc(O)cc(C)c3c2c1,NL4-3,-,Jurkat cells,luciferase,pseudotyped,60 µM,88%
CCSCCCCCCCCCCCC(=O)O,IIIB,-,CEM + CEM-SS,cytopathic effect / XTT,-,6.3 µM,47%
Cc1cn([C@H]2C[C@H](N=[N+]=[N-])[C@@H](CO)O2)c(=O)[nH]c1=O,BaL,-,Monocytes + Monocyte,p24 / ELISA,-,0.0017 µg/mL,90%
Cc1cn([C@H]2C[C@H](N=[N+]=[N-])[C@@H](COC(=O)CCC(=O)Nc3ccn([C@H]4CC[C@@H](CO)O4)c(=O)n3)O2)c(=O)[nH]c1=O,-,-,-,cytopathic effect,-,1 µM,100%
NCC(=O)N1CCC[C@H]1C=O,IIIB,-,H9,p24,-,250 µg/mL,0%
COC(=O)[C@@]12Oc3ccc(-c4ccc(O)c5c4O[C@@]4(C(=O)OC)C(=C5O)C(=O)C[C@@H](C)[C@@H]4O)c(O)c3C(O)=C1C(=O)C[C@H](C)[C@H]2O,SF162,-,TZM-bl,luciferase,-,10 µM,90.86%

Repeating the final 3 entries:

Cc1cn([C@H]2C[C@H](N=[N+]=[N-])[C@@H](COC(=O)CCC(=O)Nc3ccn([C@H]4CC[C@@H](CO)O4)c(=O)n3)O2)c(=O)[nH]c1=O ; read by: cytopathic effect ; tested at: 1 µM ; value: 100%
NCC(=O)N1CCC[C@H]1C=O ; strain: IIIB ; cells: H9 ; read by: p24 ; tested at: 250 µg/mL ; value: 0%
COC(=O)[C@@]12Oc3ccc(-c4ccc(O)c5c4O[C@@]4(C(=O)OC)C(=C5O)C(=O)C[C@@H](C)[C@@H]4O)c(O)c3C(O)=C1C(=O)C[C@H](C)[C@H]2O ; strain: SF162 ; cells: TZM-bl ; read by: luciferase ; tested at: 10 µM ; value: 90.86%